From ChEMBL document CHEMBL3091419, “Cytidine derivatives as IspF inhibitors of Burkolderia pseudomallei” (Bioorg Med Chem Lett, 2013)

Molecular target: T1, 2-C-methyl-D-erythritol 2,4-cyclodiphosphate synthase (Burkholderia pseudomallei (strain K96243), UniProt Q63T71)
T1 sequence (Q63T71 whole entry): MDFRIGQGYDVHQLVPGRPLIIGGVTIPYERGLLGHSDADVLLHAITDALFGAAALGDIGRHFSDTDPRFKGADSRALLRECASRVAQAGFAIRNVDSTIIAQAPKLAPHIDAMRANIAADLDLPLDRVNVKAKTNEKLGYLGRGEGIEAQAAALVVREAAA
Experiment: Binding affinity to Burkolderia pseudomallei IspF by surface plasmon resonance method

Nc1ccn([C@@H]2O[C@H](COP(=O)(O)OP(=O)(O)O)[C@@H](O)[C@H]2O)c(=O)n1
Kd: 75 µM
